Pooled drug test results. Numbers come from NIAID ChemDB, via PubChem.

All rows: growth or infection tests; species: HIV-2; measure: EC50

Conditions beyond the fields shown may differ between rows. ECn: concentration that inhibits the pathogen or its effect by n%. An empty or dashed field is not shown.

compound | method | mutations | cells | strain or isolate | setting | value
C1CNCCNCCCN[C@H]([C@@H]2CNCCCNCCNCCCN2)CNC1 | cytopathic effect / MTT |  | MT-4 | EHO |  | 0.29 µM
O=C1CSC(c2c(F)cccc2F)N1Cc1ccco1 | cytopathic effect |  | MT-4 | ROD |  | 61.5 µM
Cc1cn([C@H]2C[C@H](N=[N+]=[N-])[C@@H](CO)O2)c(=O)nc1N(C)N | MTT / ELISA |  | MT-4 | ROD |  | 0.06 µM
O=c1[nH]n(-c2nc3ccccc3c(=O)n2-c2ccccc2Cl)c(=O)c2ccccc12 | visual reading |  | MT-4 | ROD |  | 100 µM
Cc1cn([C@H]2C=C[C@@H](COP(=O)(OCc3ccccc3)OCc3ccccc3)O2)c(=O)[nH]c1=O | cytopathic effect / syncytia |  | CEM + CEM/O | ROD |  | 18.3 µM
C=CCn1c(-n2[nH]c(=O)c3ccccc3c2=O)nc2ccccc2c1=O | visual reading |  | MT-4 | ROD |  | 100 µM
O=c1[nH]cnc2c1ncn2[C@H]1CC[C@@H](CO)O1 | ELISA |  | PBMC | 336 |  | 2.19 µM
CCc1c(S(=O)(=O)Cc2cccc3ccccc23)cc(C)oc1=O | MTT |  | CEM | ROD |  | >2 µM
CCOP(=O)(/C=C\n1cc(CO)c(=O)[nH]c1=O)OCC |  |  | CEM + CEM-SS | ROD |  | >200 µM
CC(=O)Oc1ccc(COP(=O)(OCc2ccc(OC(C)=O)cc2)OC[C@@H]2C=C[C@H](n3cc(C)c(=O)[nH]c3=O)O2)cc1 | cytopathic effect / syncytia |  | CEM + CEM TK- | ROD |  | 0.13 µM
CCOP(=O)(/C=C/n1ccc(=O)[nH]c1=O)OCC |  |  | CEM + CEM-SS | ROD |  | >200 µM
Cc1cn([C@H]2C[C@H](N=[N+]=[N-])[C@@H](CO)O2)c(=O)[nH]c1=O | visual reading |  | MT-4 | ROD |  | 0.000642 µM
CN(C)c1cccc2c(S(=O)(=O)N3CCSC3c3cccnc3)cccc12 | β-galactosidase |  | MAGI + MAGI-CCR5 | ROD | 3 d | >2000 µM
Cc1cc(S(=O)(=O)CCc2cccc3ccccc23)c(Br)c(=O)o1 | MTT |  | CEM | ROD |  | >10 µM
COC(=O)CC(OP(=O)(OC[C@@H]1C=C[C@H](n2cc(C)c(=O)[nH]c2=O)O1)OC(CC(=O)OC)c1ccc(OC(C)=O)cc1)c1ccc(OC(C)=O)cc1 | cytopathic effect / syncytia |  | CEM + CEM/O | ROD |  | 0.3 µM
CC(C)[C@H](NC(=O)c1ccc2ccccc2n1)C(=O)N[C@@H](Cc1ccccc1)[C@H](O)CN1CC[C@@H](OCc2ccncc2)C[C@H]1C(=O)NC(C)(C)C | p24 |  | CEMx174 + CEM | ROD |  | 0.004 µM
COC(=O)C(Cc1ccccc1)NC(=O)[C@@H](NC(=O)[C@@H](C[C@H](O)[C@H](CC1CCCCC1)NC(=O)[C@@H](NC(=O)[C@H](Cc1ccccc1)CS(=O)(=O)C(C)(C)C)C(C)C)C(C)C)C(C)C | cytopathic effect / MTT | RT-S102L | MT-4 | EHO |  | 13.7 µM
O=C1CCSC(c2c(F)cccc2F)N1Cc1ccco1 | cytopathic effect |  | MT-4 | ROD |  | 50.7 µM
O=c1[nH]n(-c2nc3ccccc3c(=O)n2-c2ccc([N+](=O)[O-])cc2)c(=O)c2ccccc12 | visual reading |  | MT-4 | ROD |  | 66.47 µM
Cc1cn([C@H]2C=C[C@@H](COP3(=O)Oc4ccccc4C(C)O3)O2)c(=O)[nH]c1=O | cytopathic effect / syncytia |  | CEM + CEM TK- | ROD |  | >10 µM
CC(C)Nc1cccnc1N1CCN(C(=O)c2cc3cc(NS(C)(=O)=O)ccc3[nH]2)CC1 | cytopathic effect / MTT | RT-E219D | MT-4 | EHO |  | >47.3 µM
O=C1CSC(c2c(F)cccc2F)N1c1cccc(C(F)(F)F)c1 | cytopathic effect |  | MT-4 | ROD |  | 12.2 µM
C1CNCCNCCCN(CCN2CCCNCCNCCCNCC2)CCNC1 | cytopathic effect / MTT |  | MT-4 | ROD |  | 124.6 µM
CCc1cc(NCc2nc3c(Cl)ccc(Cl)c3o2)c(=O)[nH]c1C | cytopathic effect / MTT |  | MT-4 | EHO |  | 11.1 µM
Cc1cc(NCc2ccccc2)cc(=O)o1 | MTT |  | CEM | ROD |  | >250 µM
Cc1cn(/C=C/P(=O)(O)O)c(=O)[nH]c1=O |  |  | CEM + CEM-SS | ROD |  | >200 µM
O=C1CSC(c2ccnc3ccccc23)N1Cc1ccco1 | cytopathic effect |  | MT-4 | ROD |  | 21.9 µM
Cc1cn([C@H]2C[C@H](N=[N+]=[N-])[C@@H](CO)O2)c(=O)[nH]c1=O | β-galactosidase |  | MAGI + MAGI-CCR5 | ROD | 3 d | 0.026 µM
Cc1ccnc2c1NC(=O)c1cccnc1N2C1CC1 | plaque count |  | HT4 + HT4-6C | ROD |  | >3.2 µM
Cc1cc(NCc2cccc3ccccc23)c(C(=O)C(Cl)Cl)c(=O)o1 | MTT |  | CEM | ROD |  | >2 µM
CN=C1CN=C(c2ccc[nH]2)c2cc(Cl)ccc2N1 | plaque count |  | HT4 + HT4-6C | ROD |  | 3 µM
CC(=O)Nc1nc2c(ncn2/C=C\P(=O)(O)O)c(=O)[nH]1 |  |  | CEM + CEM-SS | ROD |  | >200 µM
CN(C)c1ccc(C2SCC(=O)N2Cc2ccco2)cc1 | cytopathic effect |  | MT-4 | ROD |  | 11.5 µM
C1CNCCNCCCN(CCCN2CCCNCCNCCCNCC2)CCNC1 | antigen |  | CEM | ROD |  | 0.37 µM
CCOP(=O)(/C=C\n1ccc(N)nc1=O)OCC |  |  | CEM + CEM-SS | ROD |  | >200 µM

A second listing of 4 rows from above:

| compound | method | mutations | cells | strain or isolate | setting | value |
|---|---|---|---|---|---|---|
| Cc1cn([C@H]2C[C@H](N=[N+]=[N-])[C@@H](CO)O2)c(=O)[nH]c1=O | visual reading |  | MT-4 | ROD |  | 0.000642 µM |
| Cc1cn(/C=C/P(=O)(O)O)c(=O)[nH]c1=O |  |  | CEM + CEM-SS | ROD |  | >200 µM |
| O=C1CSC(c2c(F)cccc2F)N1Cc1ccco1 | cytopathic effect |  | MT-4 | ROD |  | 61.5 µM |
| COC(=O)CC(OP(=O)(OC[C@@H]1C=C[C@H](n2cc(C)c(=O)[nH]c2=O)O1)OC(CC(=O)OC)c1ccc(OC(C)=O)cc1)c1ccc(OC(C)=O)cc1 | cytopathic effect / syncytia |  | CEM + CEM/O | ROD |  | 0.3 µM |